Tested on: HEK293T
Assay: Mammalian cytotoxicity counter screen, luminescent ATP viability assay
Assay type: cell-based, human
Settings: toxicity in mammalian cell cultures versus G. lamblia GS-clone 7 trophozoites

## CCCN(CCC)c1ccc(N=Nc2ccccc2C(=O)O)cc1 [propyl red]
  Selectivity index (SI), CC50/EC50: > 4
